Test system: MRSA
Assay: Antibiotic uptake assay (ICP-MS of cellular Pt)
Assay type: cell-based, S. aureus

With `C1=C\CC/C=C\CC/1.[Cl][Pt][Cl]` [Pt1] the “Percent Pt content of MRSA cell lysate (% Pt)” value (60 min treatment, 1.56 µM Pt1, 6.25 µM Pt8, 100 µM CisPt) was 1.5 ± 0.3%, the “absolute amounts of platinum in bacteria after treatment” value (MRSA, 1.56 µM Pt1, 6.25 µM Pt8, 100 µM CisPt) was 3.5 µg/L and the “uptake efficiency relative to CisPt” value (fold more efficient than CisPt) was 50 x. For the same compound, the “uptake efficiency relative to Pt8” value (fold more efficient than Pt8) was 3 x.
